Assay results taken from US20210196816A1, “ALGAE COMPRISING THERAPEUTIC AND/OR NUTRITIONAL AGENTS” (TomAlgae CVBA, priority 2016, published 2021).

Test system: algae cells
Test: Loading of freeze-dried algae with glycine, glucose or vitamin B1 by rehydration; residual levels after washing
Parameters: species or system Cyclotella meneghiniana
Settings: for Amount of amino acids in algae preparations: mean ± SD (n = 3), ninhydrin, after washing; for fold higher amount of vitamin B1 vs algae rehydrated without vitamin B1: 28 mM vitamin B1 in distilled water vs distilled water

Compound | fold higher amount of glycine vs algae rehydrated without glycine (28 mM glycine in distilled water vs distilled water) [fold] | fold-difference in amount of glycine vs algae rehydrated without glycine (28 mM glycine in sea water vs sea water) [fold] | enrichment of algae preparations relatively to pure water (28 mM solutions, either distilled water or sea water) | Amount of amino acids in algae preparations (Distilled water + 28 mM glycine) [mg/g dry weight] | Amount of amino acids in algae preparations (Sea water + 28 mM glycine) [mg/g dry weight] | fold higher amount of vitamin B1 vs algae rehydrated without vitamin B1 [fold] | fold higher amount of vitamin B1 vs algae rehydrated without vitamin B1 (listed as Vitamin B1) [fold]
NCC(=O)O [glycine] | 1.3 | 1.9 | about 2 fold | 2.69 ± 0.46 | 2.64 ± 0.18 | – | –
Cc1ncc(C[n+]2csc(CCO)c2C)c(N)n1 [vitamin B1, thiamine] | – | – | – | – | – | 10.1 | 10
